Assay: general procedure: solution-phase peptide synthesis; HATU/DIPEA
Details: conjugation step
For “Fmoc-Lys(PEG12)-GlucQ-Tub(O-methylpropene)”, the conjugation yield was 56%. For “mDPR(Boc)-Lys(PEG12)-GlucQ-Tub(O-iso-allyl)”, the conjugation yield was 61%. Substance Fmoc-Lys(PEG12)-GlucQ-Tub has a conjugation yield of 70%. With Fmoc-GlucQ-Tub(OPr)-OAllyl the conjugation yield was 68%. Fmoc-Lys(PEG12)-ValGluPABQ-Tub showed a conjugation yield of 75%. In the case of Fmoc-Lys(PEG12)-GlucQ-Tub(OEt), the conjugation yield is reported as 67%. For “mDPR(Boc)-Lys(PEG12)-GlucQ-Tub(O-methylpropene)”, the conjugation yield was 63%. With Fmoc-Lys(PEG12)-GlucQ-Tub(OPr) the conjugation yield was 73%. In the case of mDPR(Boc)-Lys(PEG12)-GlucQ-Tub, the conjugation yield is reported as 61%. Work on Boc-Val-Glu(OtBu)-PABQ-Tub-OAllyl yielded a conjugation yield of 85%. Substance mDPR(Boc)-Lys(PEG12)-GlucQ-Tub(OPr) has a conjugation yield of 74%. Substance mDPR(Boc)-Lys(PEG12)-ValGluPABQ-Tub has a conjugation yield of 46%. Fmoc-Lys(PEG12)-GlucQ-Tub-(O-iso-allyl) gave a conjugation yield of 13%. Substance Boc-Val-Ala-PAB-TubM-OtBu has a conjugation yield of 58%.

Same assay, conditions: coupling step
Work on “(2S,4R)-allyl 4-(2-((1R,3R)-3-((2S,3S)—N,3-dimethyl-2-((R)-1-methylpiperidine-2-carboxamido)pentanamido)-4-methyl-1-((2-methylallyl)oxy)pentyl)thiazole-4-carboxamido)-2-methyl-5-phenylpentanoate” yielded a step yield of 62%. Work on “(2S,4R)-allyl 4-(2-((1R,3R)-1-(butyryloxy)-3-((2S,3S)—N,3-dimethyl-2-((R)-1-methylpiperidine-2-carboxamido)pentanamido)-4-methylpentyl)thiazole-4-carboxamido)-2-methyl-5-phenylpentanoate” yielded a step yield of 98%. Work on “(2S,4R)-allyl 4-(2-((1R,3R)-3-((2S,3S)—N,3-dimethyl-2-((R)-1-methylpiperidine-2-carboxamido)pentanamido)-4-methyl-1-(propionyloxy)pentyl)thiazole-4-carboxamido)-2-methyl-5-phenylpentanoate” yielded a step yield of 97%. For “(2S,4R)-allyl 4-(2-((1R,3R)-3-((2S,3S)—N,3-dimethyl-2-((R)-1-methylpiperidine-2-carboxamido)pentanamido)-4-methyl-1-(prop-2-yn-1-yloxy)pentyl)thiazole-4-carboxamido)-2-methyl-5-phenylpentanoate”, the step yield was 93%. In the case of Fmoc-GlucQ-Tub(O-methylpropene)-OAllyl, the step yield is reported as 49%. For “(2S,4R)-allyl 4-(2-((1R,3R)-3-((2S,3S)—N,3-dimethyl-2-((R)-1-methylpiperidine-2-carboxamido)pentanamido)-4-methyl-1-((3-methylbutanoyl)oxy)pentyl)thiazole-4-carboxamido)-2-methyl-5-phenylpentanoate”, the step yield was 94%. For Fmoc-Gluc(Allyl)Q-TubM-OAllyl, the step yield was 46%. For Fmoc-Gluc(Allyl)Q-Tub(iso-O-Allyl), the step yield was 13%. Substance Tub(OMe)-OAllyl has a step yield of 71%. Work on Tub(OEt)-OAllyl yielded a step yield of 71%. Work on Tub(OPr)-OAllyl yielded a step yield of 53%. With “(2S,4R)-allyl 4-(2-((1R,3R)-1-(benzyloxy)-3-((2S,3S)—N,3-dimethyl-2-((R)-1-methylpiperidine-2-carboxamido)pentanamido)-4-methylpentyl)thiazole-4-carboxamido)-2-methyl-5-phenylpentanoate” the step yield was 75%. “(2S,4R)-allyl 4-(2-((1R,3R)-3-((2S,3S)—N,3-dimethyl-2-((R)-1-methylpiperidine-2-carboxamido)pentanamido)-1-((3,3-dimethylbutanoyl)oxy)-4-methylpentyl)thiazole-4-carboxamido)-2-methyl-5-phenylpentanoate” gave a step yield of 94%. Substance “(2S,4R)-allyl 4-(2-((1R,3R)-3-((2S,3S)—N,3-dimethyl-2-((R)-1-methylpiperidine-2-carboxamido)pentanamido)-1-(isobutyryloxy)-4-methylpentyl)thiazole-4-carboxamido)-2-methyl-5-phenylpentanoate” has a step yield of 94%.

Same assay, conditions: late stage modification step
H-Lys(PEG12)-GlucQ-Tub(OPr) gave a step yield of 71%. With Val-Ala-PAB-TubM the step yield was 63%. With “(2R)-2-(((2S,3S)-1-(((1R,3R)-1-acetoxy-1-(4-(((2R,4S)-4-carboxy-1-phenylpentan-2-yl)carbamoyl)thiazol-2-yl)-4-methylpentan-3-yl)(methyl)amino)-3-methyl-1-oxopentan-2-yl)carbamoyl)-1-(3-((S)-44-((S)-3-amino-2-(2,5-dioxo-2,5-dihydro-1H-pyrrol-1-yl)propanamido)-38,45-dioxo-2,5,8,11,14,17,20,23,26,29,32,35-dodecaoxa-39,46-diazanonatetracontanamido)-4-(((2S,3R,4S,5S,6S)-6-carboxy-3,4,5-trihydroxytetrahydro-2H-pyran-2-yl)oxy)benzyl)-1-methylpiperidin-1-ium” the step yield was 97%. Work on “(2S,4R)-4-(2-((1R,3R)-1-(allyloxy)-3-((2S,3S)—N,3-dimethyl-2-((R)-1-methylpiperidine-2-carboxamido)pentanamido)-4-methylpentyl)thiazole-4-carboxamido)-2-methyl-5-phenylpentanoic acid” yielded a step yield of 92%. With “(2S,4R)-4-(2-((1R,3R)-1-(benzyloxy)-3-((2S,3S)—N,3-dimethyl-2-((R)-1-methylpiperidine-2-carboxamido)pentanamido)-4-methylpentyl)thiazole-4-carboxamido)-2-methyl-5-phenylpentanoic acid” the step yield was 96%. Work on “(2S,4R)-4-(2-((1R,3R)-3-((2S,3S)—N,3-dimethyl-2-((R)-1-methylpiperidine-2-carboxamido)pentanamido)-4-methyl-1-((2-methylallyl)oxy)pentyl)thiazole-4-carboxamido)-2-methyl-5-phenylpentanoic acid” yielded a step yield of 93%. Substance H-Lys(PEG12)-GlucQ-Tub has a step yield of 82%. With “(2R)-1-(3-((S)-44-((S)-3-amino-2-(2,5-dioxo-2,5-dihydro-1H-pyrrol-1-yl)propanamido)-38,45-dioxo-2,5,8,11,14,17,20,23,26,29,32,35-dodecaoxa-39,46-diazanonatetracontanamido)-4-(((2S,3R,4S,5S,6S)-6-carboxy-3,4,5-trihydroxytetrahydro-2H-pyran-2-yl)oxy)benzyl)-2-(((2S,3S)-1-(((1R,3R)-1-(4-(((2R,4S)-4-carboxy-1-phenylpentan-2-yl)carbamoyl)thiazol-2-yl)-4-methyl-1-((2-methylallyl)oxy)pentan-3-yl)(methyl)amino)-3-methyl-1-oxopentan-2-yl)carbamoyl)-1-methylpiperidin-1-ium” the step yield was 94%. Work on H-Lys(PEG12)-GlucQ-Tub(OEt) yielded a step yield of 86%. H-Lys(PEG12)-ValGluPABQ-Tub showed a step yield of 86%. Substance H-Lys(PEG12)-GlucQ-Tub-(O-iso-allyl) has a step yield of 82%. For “(2S,4R)-tert-butyl 4-(2-((1R,3R)-1-acetoxy-3-((2S,3S)—N,3-dimethyl-2-((R)-1-methylpiperidine-2-carboxamido)pentanamido)-4-methylpentyl)thiazole-4-carboxamido)-2-methyl-5-phenylpentanoate”, the step yield was 32%. “(2S,4R)-4-(2-((1R,3R)-3-((2S,3S)—N,3-dimethyl-2-((R)-1-methylpiperidine-2-carboxamido)pentanamido)-4-methyl-1-(prop-2-yn-1-yloxy)pentyl)thiazole-4-carboxamido)-2-methyl-5-phenylpentanoic acid” showed a step yield of 55%. With “(2R)-2-(((2S,3S)-1-(((1R,3R)-1-acetoxy-1-(4-(((2R,4S)-4-carboxy-1-phenylpentan-2-yl)carbamoyl)thiazol-2-yl)-4-methylpentan-3-yl)(methyl)amino)-3-methyl-1-oxopentan-2-yl)carbamoyl)-1-(3-(3-((S)-3-amino-2-(2,5-dioxo-2,5-dihydro-1H-pyrrol-1-yl)propanamido)propanamido)-4-(((2S,3R,4S,5S,6S)-6-carboxy-3,4,5-trihydroxytetrahydro-2H-pyran-2-yl)oxy)benzyl)-1-methylpiperidin-1-ium” the step yield was 81%.
